A mixed list of measured activities; the numbers were collected in NIAID ChemDB.

All rows: cytotoxicity tests; cells: MT-4; read-out: CC50

CCn is the concentration with n% toxicity to the cells.

structure,read by,result
O=S1(=O)NC(Cc2ccc(Cl)cc2Cl)=CC(=NC2CCN(Cc3c(Cl)cccc3Cl)CC2)N1,MTT,48.2 µM
Nc1nc(Cl)nc2c1ncn2[C@@H]1C[C@@H](F)[C@H](CO)O1,,>10 µM
Cc1c(O)cccc1C(=O)N[C@@H](CSc1ccccc1)[C@@H](CN1C[C@H]2CCCC[C@H]2C[C@H]1C(=O)NC(C)(C)C)OC(=O)CCCCNC(=O)O[C@H]1[C@@H](C2COC(C)(C)O2)OC2OC(C)(C)O[C@H]21.O=C(O)C(F)(F)F.O=C(O)C(F)(F)F,,>10 µM
Cc1c(C(C)(C)C)s/c(=N\S(=O)(=O)c2cc(Cl)ccc2O)n1C,MTT,>25 µM
COc1c(O)ccc(C2CC(=O)c3c(O)cc(O)c(CC=C(C)C)c3O2)c1CC=C(C)C,,11 µg/mL
Cc1c(C(C)CC2CCCCC2)nc(SCC(=O)c2ccc(F)cc2)[nH]c1=O,MTT,115 µM
CCOC(=O)c1oc2cc(O)cc(O)c2c(=O)c1Oc1ccc(OC)cc1OC,,>25 µg/mL
Cc1cc(Cl)nc(N2C(=O)CSC2c2c(F)cccc2F)n1,,>73.1 µM
Nc1nc(Cl)nc2c1ncn2[C@@H]1CC[C@H](CO)O1,,>10 µM
CC/C(C)=C/Cc1c(O)cc2oc(-c3ccc(O)c(O)c3)cc(=O)c2c1O,,55 µg/mL
COc1ccc(/C=C/CSc2nc(Cc3c(Cl)cccc3Cl)c(C)c(=O)[nH]2)cc1,,0.96 µM
O=S1(=O)NC(Cc2cccc3ccccc23)=CC(=NC2CCN(Cc3ccc(Br)cc3)CC2)N1,MTT,83.78 µM
Nc1nc(Cl)nc2c1ncn2[C@@H]1C[C@H](O)[C@H](CO)O1,,>10 µM
Cc1c(C(C)(C)C)s/c(=N\S(=O)(=O)c2cc(Cl)ccc2N)n1C,MTT,>25 µM
N#Cc1ccccc1CN1CCC(N=C2C=C(Cc3cccc4ccccc34)NS(=O)(=O)N2)CC1,MTT,108 µM
CCCCC/C=C\C/C=C\CCCCCCCC(=O)OCC1=C[C@H]2[C@@H]3C(C)(C)[C@]3(OC(C)=O)[C@H](OC(C)=O)[C@@H](C)[C@]2(O)[C@@H]2C=C(C)C(=O)[C@@]2(O)C1,,>62.5 µg/mL
CNc1nc2c(o1)c(C)nn2-c1ccccc1,,31 µM
Cc1cc(Cl)nc(N2C(=O)CSC2c2c(F)cccc2Cl)n1,,0.893 µM
C/C=C(/C)C(=O)O[C@]12C(C3C=C(CO)C[C@]4(O)C(=O)C(C)=CC4[C@@]3(O)[C@H](C)[C@H]1OC(C)=O)C2(C)C,,>500 µg/mL
CCc1c(Cc2c(Cl)cccc2Cl)nc(SCc2ccc([N+](=O)[O-])cc2)[nH]c1=O,,>55.55 µM
O=C(NCCCCCCN1CCCN(CCCCCCNC(=O)OCc2ccccc2)CCCN(CCCCCCNC(=O)OCc2ccccc2)CCN(CCCCCCNC(=O)OCc2ccccc2)CCC1)OCc1ccccc1,,1 µM
CCCCCCCCCC(=O)O[C@@H]1[C@@H](C)[C@]2(O)[C@@H]3C=C(C)C(=O)[C@@H]3CC(COC(C)=O)=C[C@H]2[C@@H]2C(C)(C)[C@]12OC(C)=O,,>1000 µg/mL
NC(N)=NCCC[C@H](N)C(=O)NC[C@H]1O[C@H](O[C@H]2C(O)[C@@H](O[C@H]3O[C@H](CO)[C@@H](O)[C@H](NC(=O)[C@@H](N)CCCN=C(N)N)[C@H]3O)[C@H](NC(=O)[C@@H](N)CCCN=C(N)N)C[C@@H]2NC(=O)[C@@H](N)CCCN=C(N)N)[C@H](O)[C@@H](O)[C@@H]1O,,>1130 µM
Cc1c(C(C)(C)C)s/c(=N\S(=O)(=O)c2cc(Cl)ccc2[N+](=O)[O-])n1C,MTT,22 µM
Cc1nn(-c2ccccc2)c2nc(NC(C)(C)C)oc12,,18 µM
Cc1c(C(C)(C)C)s/c(=N\S(=O)(=O)c2ccccc2[N+](=O)[O-])n1C,MTT,>25 µM
COc1ccc(/C=C/Sc2nc(C(C)c3c(Cl)cccc3Cl)c(C)c(=O)[nH]2)cc1,,>55.93 µM
CCc1c(CCC2CCCCC2)nc(SCC(=O)c2ccc(F)cc2)[nH]c1=O,MTT,164 µM
CC(C)(C)NC(=O)[C@@H]1CN(Cc2cccnc2)CCN1C[C@H](C[C@@H](Cc1ccccc1)C(=O)N[C@H]1c2ccccc2C[C@H]1O)OC(=O)CCCCNC(=O)O[C@H]1[C@@H](C2COC(C)(C)O2)OC2OC(C)(C)O[C@H]21.O=C(O)C(F)(F)F.O=C(O)C(F)(F)F,,>100 µM
NC(N)=NCCCC(=O)NCC1OC(OC2C(NC(=O)CCCN=C(N)N)CC(NC(=O)CCCN=C(N)N)C(OC3CC(NC(=O)CCCN=C(N)N)C(O)C(CO)O3)C2O)C(O)C(O)C1O,,>200 µM
O=C(NCCCCN1CCCN(CCCCNC(=O)OCc2ccccc2)CCCN(CCCCNC(=O)OCc2ccccc2)CCN(CCCCNC(=O)OCc2ccccc2)CCC1)OCc1ccccc1,,50 µM
COc1cc(C)nc(N2C(=O)CSC2c2c(F)cccc2Cl)n1,,215 µM
O=S1(=O)NC(Cc2cccc3ccccc23)=CC(=NC2CCN(Cc3ccc(F)cc3)CC2)N1,MTT,120 µM
CCNc1nc2c(o1)c(C)nn2-c1ccccc1,,29 µM
Cc1c(CCC2CCCCC2)nc(SCC(=O)c2ccc(O)cc2)[nH]c1=O,MTT,8.2 µM
Cc1cc(=O)[nH]c(N2C(=O)CSC2c2c(F)cccc2F)n1,,6.55 µM
CC(=O)O[C@@]12[C@H](O)[C@@H](C)[C@@]3(O)[C@@H](C=C(CO)C[C@]4(O)C(=O)C(C)=C[C@@H]34)[C@@H]1C2(C)C,,>1000 µg/mL
CC(C)(C)NC(=O)[C@@H]1CC2CCCCC2CN1C[C@@H](OC(=O)CCC(=O)O[C@H]1[C@@H](C2COC(C)(C)O2)OC2OC(C)(C)O[C@H]21)[C@H](Cc1ccccc1)NC(=O)[C@H](CC(N)=O)NC(=O)c1ccc2ccccc2n1.O=C(O)C(F)(F)F.O=C(O)C(F)(F)F,,>10 µM
COc1ccc(S(=O)(=O)/N=c2\sc(C(C)(C)C)c(C)n2C)cc1,MTT,>25 µM
CC(CC1CCCCC1)c1cc(=O)[nH]c(SCC(=O)c2ccccc2)n1,MTT,151 µM
COc1cc(O)cc2c1[C@@H]1Oc3c(ccc(O)c3CC=C(C)C)[C@@H]1CO2,,12 µg/mL
Cc1nn(C)c2c1nnn2Cc1ccccc1,,>200 µM
NCCCCCN1CCCN(CCCCCN)CCCN(CCCCCN)CCN(CCCCCN)CCC1,,50 µM
Cc1c(C(C)(C)C)s/c(=N\S(=O)(=O)c2ccccc2)n1C,MTT,>25 µM
CCCCCCCCC(=O)O[C@@]12[C@H](OC(C)=O)[C@@H](C)[C@@]3(O)[C@@H](C=C(CO)C[C@]4(O)C(=O)C(C)=C[C@@H]34)[C@@H]1C2(C)C,,>31.3 µg/mL
CC(=O)Nc1ccc(Cl)cc1S(=O)(=O)/N=c1\sc(C(C)(C)C)c(C)n1C,MTT,>25 µM
Cc1c(C(C)c2c(Cl)cccc2Cl)nc(SC/C=C/c2ccc([N+](=O)[O-])cc2)[nH]c1=O,,40.97 µM
Cc1cn([C@H]2C[C@H](N=[N+]=[N-])[C@@H](CO)O2)c(=O)[nH]c1=O,MTT,>25 µM
CC(=O)Oc1ccc(CSc2nc(Cc3c(Cl)cccc3Cl)c(C)c(=O)[nH]2)cc1,,>55.68 µM
CC(C)(C)NC(=O)[C@@H]1CC2CCCCC2CN1C[C@@H](OC(=O)CCCCNC(=O)O[C@H]1[C@@H](C2COC(C)(C)O2)OC2OC(C)(C)O[C@H]21)[C@H](Cc1ccccc1)NC(=O)[C@H](CC(N)=O)NC(=O)c1ccc2ccccc2n1.O=C(O)C(F)(F)F.O=C(O)C(F)(F)F.O=C(O)C(F)(F)F.O=C(O)C(F)(F)F,,>10 µM
Cc1c(C(C)c2c(F)cccc2F)nc(SC/C=C/c2ccc(C#N)cc2)[nH]c1=O,,>59.1 µM
O=C(OCc1ccccc1)N(CCCCCN1CCCN(CCCCCN(Cc2ccccc2)C(=O)OCc2ccccc2)CCN(CCCCCN(Cc2ccccc2)C(=O)OCc2ccccc2)CCCN(CCCCCN(Cc2ccccc2)C(=O)OCc2ccccc2)CC1)Cc1ccccc1,,>50 µM
CCc1c(Cc2c(Cl)cccc2Cl)nc(SC/C=C/c2ccc(OC)cc2)[nH]c1=O,,0.19 µM
CC1(C)CCc2c(cc(O)c3c2OC(c2ccc(O)c(O)c2)CC3=O)O1,,>10 µg/mL

Lines come from different laboratories, so protocols vary. Blank or dashed fields: not listed here.